This note sets out measurements from article PMC8420505, “Identification of lectin receptors for conserved SARS‐CoV‐2 glycosylation sites” (2021).

Experiment [1] concerns the target stabilized full‐length trimeric pre‐fusion SARS‐CoV‐2 Spike protein (Spike‐H6) (SARS‐CoV‐2) (UniProt P0DTC2). As to the kind of experiment: SPR. (Surface plasmon resonance follows binding to a sensor surface in real time, without labels.)
Experiment [2] shares this target. The experiment is described as follows: high-speed AFM.
Experiment [3] shares this target. The experiment is described as follows: single-molecule force spectroscopy (AFM).

By koff is commonly meant a measure of how fast the partners let go of each other. Read a low koff as slow dissociation.

“mouse CD209c carbohydrate recognition domain - mouse IgG2a‐Fc fusion protein (from UniProt Q91ZW9 1-178)”: in experiment [1], the Kd,1 (first binding step, bivalent analyte model) stood at 0.988 µM; the ka,1 (first binding step, bivalent analyte model) was found to be 16100 M⁻¹ s⁻¹; the kd,1 (first binding step, bivalent analyte model) came out at 0.0159 s⁻¹. The substance also yielded a stoichiometry N (lectin molecules per Spike trimer) in experiment [2] of 5.2. Besides, the koff in experiment [3] is 0.041 s⁻¹.

For “human CLEC4G‐hIgG1 Fc‐fusion protein (from UniProt Q6UXB4) (Fc fusion)”, the koff in experiment [3] was 0.007 s⁻¹.

In experiment [1], “mouse Clec4g carbohydrate recognition domain - mouse IgG2a‐Fc fusion protein (from UniProt Q8BNX1 1-294)” had a Kd,1 (first binding step, bivalent analyte model) of 1.62 µM; a ka,1 (first binding step, bivalent analyte model) of 61700 M⁻¹ s⁻¹; a kd,1 (first binding step, bivalent analyte model) of 0.0997 s⁻¹. In addition, the stoichiometry N (lectin molecules per Spike trimer) in experiment [2] came out at 3.2. The substance further registered a koff in experiment [3] of 0.037 s⁻¹.
